Results of unrelated studies side by side (data: NIAID ChemDB).

All rows: tests in culture; agent: Candida albicans

Two numbers with a dash give a range or band. ECn is the concentration giving n% inhibition of infection, replication or growth. Neighbouring rows are from separate reports. A number after MIC or MFC names an inhibition level or a share of isolates. Blank or dashed fields: not listed here.

SMILES	conditions	method	strain or isolate	measure	result
CCCCCSc1ccc(N=C(N)N)cc1	-	-	ATCC 44859	MIC80	125 µM
Cc1nn([C@H](C)[C@](O)(Cn2cncn2)c2ccc(F)cc2F)c2ccc(F)cc12	-	-	ATCC 32033	MIC90	≤0.031 µg/mL
Nc1[nH]c(=O)ncc1F	-	-	ATCC 64549	MIC	200 µg/mL
CCCCCCCCCC(=O)OCC(O)COC(=O)CCCCCCCCC	-	-	-	MIC	>1000 µg/mL
CCNC1=CC(=O)c2ccccc2C1=O	-	broth dilution	MTCC 3017	MIC100	31.2 µg/mL
Cc1c(N2CC3CCC(C)(NC(=O)[C@H](C)N)C3C2)c(F)cn2c(=O)c(C(=O)O)cc(C3CC3)c12.Cl	-	-	CCH442	MIC	>100 µg/mL
COc1ccc2nc(N3CCOCC3)c(CC(C#N)c3nc4ccc(C)cc4[nH]3)cc2c1	-	broth dilution	MTCC 227	MIC	500 µg/mL
C[C@H]1[C@H](O)[C@@H](C)/C=C/C=C/C=C/C=C/C=C/C=C/C=C/[C@H](O[C@@H]2O[C@H](C)[C@@H](O)[C@H](N)[C@@H]2O)C[C@@H]2O[C@](O)(C[C@@H](O)C[C@@H](O)CC[C@H](O)[C@@H](O)C[C@@H](O)CC(=O)O[C@H]1C)C[C@H](O)[C@H]2C(=O)O	-	-	206 isolates	MIC90	1 µg/mL
CC(C)C(=O)OC1C(C)OC(=O)C(CCCCCCCNC(=O)c2ccc[nH]c2=O)COC(=O)C1Cc1ccccc1	-	-	IFO1061	MIC	50 µg/mL
CCCCCCCCCSc1ccc(N=C(N)N)cc1	-	-	ATCC 44859	MIC80	7.81 µM
COc1cc2c(c3oc(=O)c4c(c13)CCC4=O)[C@H]1C[C@H](OC(C)=O)O[C@H]1O2	-	agar	-	MIC	>100 µM
CN(C/C=C/C#CC(C)(C)C)Cc1cccc2ccccc12	clinical isolate	broth dilution	-	MIC80	3.44 µM
C[C@@H](c1ncncc1F)[C@](O)(Cn1cncn1)c1ccc(F)cc1F	-	-	206 isolates	MIC50	0.03 µg/mL
Cc1c(N2CCC(F)C2)c(F)cn2c(=O)c(C(=O)O)cc(C3CC3)c12	-	-	CCH442	MIC	>100 µg/mL
COP(=O)(OC)OC[C@@H](O)[C@@H](O)[C@H](O)[C@@H](N)CO	-	-	ATCC 10261	MIC	300 µg/mL
COc1ccccc1C=O	-	agar diffusion / agar	10261	MIC90	500–700 µg/mL
CCn1cc(C(=O)NC)c(=O)c2ccc(C)nc21	-	-	-	MIC	100–200 µg/mL
COc1ccc(Sc2n[nH]c(=S)s2)nn1	-	resazurin	ATCC 90028	EC50	>50 µg/mL
CC1=C(Nc2ccccc2)C(=O)c2ccccc2C1=O	-	broth dilution	MTCC 3017	MIC100	15.6 µg/mL
O=C/C=C/c1ccccc1	-	-	STD no 126/09	MIC	100 µg/mL
CCCCCCCc1ccc(N=C(N)N)cc1	-	-	ATCC 44859	MIC80	15.63 µM
CCCC[C@H]1C(=O)O[C@H](C)C(CCCCCCCCCCCNC(=O)c2cccc(NC=O)c2O)C(=O)O[C@@H](C)[C@@H]1OC(=O)CC(C)C	-	-	IFO1061	MIC	25 µg/mL
CCCCCCCCCCCCCC(=O)O	-	-	-	MIC	547 µg/mL
Cc1c(N2CCC[C@@H](O)C2)c(F)cn2c(=O)c(C(=O)O)cc(C3CC3)c12	-	-	CCH442	MIC	>100 µg/mL
CCCCCCCCCC(=O)O	-	-	-	MIC	290 µg/mL
CC1=NN(c2ccc(Sc3n[nH]c(=S)s3)cc2)C(=O)C1	-	resazurin	ATCC 90028	EC50	19.1 µg/mL
C=CCSSCC=C	-	-	39 isolates	MIC80	4 µg/mL
CCCCCCCCCCCCN=C(N)N	-	-	ATCC 44859	MIC80	7.81 µM
C=CCSSSSCC=C	-	-	39 isolates	MIC80	0.5 µg/mL
Cc1c(N2C[C@@H]3CCN[C@@H]3C2)c(F)cn2c(=O)c(C(=O)O)cc(C3CC3)c12	-	-	CCH442	MIC	3.1 µg/mL
COc1ccnc(C(=O)NCCCCCCCCCCCC2COC(=O)C(Cc3ccccc3)C(OC(=O)C(C)C)C(C)OC2=O)c1O	-	-	IFO1061	MIC	>100 µg/mL
CCCC/C=C\CCCCCCCC(=O)O	-	-	-	MIC	220 µg/mL
COc1ccc(NC2=CC(=O)c3ccccc3C2=O)cc1	-	broth dilution	MTCC 3017	MIC100	31.2 µg/mL
N#CC(Cc1cc2ccccc2nc1N1CCOCC1)c1nc2ccccc2[nH]1	-	broth dilution	MTCC 227	MIC	500 µg/mL
O=C1c2ccccc2C(=O)N1CSc1n[nH]c(=S)s1	-	resazurin	ATCC 90028	EC50	>50 µg/mL
CCn1cc(C(=O)Nn2c(C)nc3ccc([N+](=O)[O-])cc3c2=O)c(=O)c2ccc(C)nc21	-	-	-	MIC	<50 µg/mL
CCC(C)n1ncn(-c2ccc(N3CCN(c4ccc(OC[C@H]5CO[C@](Cn6cncn6)(c6ccc(Cl)cc6Cl)O5)cc4)CC3)cc2)c1=O	-	-	Isogenic isolate 8 (25X)	MIC	0.015 µg/mL
COc1cc2c(c3oc(=O)c4c(c13)CCC4=O)C1C=COC1O2	-	agar	-	MIC	>100 µM
O=C1C=C(NCCc2ccc(O)cc2)C(=O)c2ccccc21	-	broth dilution	MTCC 3017	MIC100	62.5 µg/mL
CCC(C)CC(C)CCCCCCCCC(=O)NC1C[C@@H](O)[C@@H](O)NC(=O)[C@@H]2[C@@H](O)CCN2C(=O)[C@H]([C@@H](O)CC(N)=O)NC(=O)[C@H]([C@H](O)[C@@H](O)c2ccc(OP(=O)([O-])O)cc2)NC(=O)[C@@H]2C[C@@H](O)CN2C(=O)[C@H]([C@H](C)O)NC1=O.[Na+]	-	-	MY1028	MFC	4 µg/mL
CCCCCCCCCCCSc1ccc(N=C(N)N)cc1	-	-	ATCC 44859	MIC80	7.81 µM
O=C1C=C(N2CCOCC2)C(=O)c2ccccc21	-	broth dilution	MTCC 3017	MIC100	62.5 µg/mL
Cc1c(N2CC[C@H](NC(=O)[C@H](C)N)C2)c(F)cn2c(=O)c(C(=O)O)cc(C3CC3)c12	-	-	CCH442	MIC	>100 µg/mL
C=CCc1ccc(O)c(-c2ccc(O)c(CC=C)c2)c1	-	-	KCTC 1940	MIC	25 µg/mL
Cc1c(N2CCC(CN)C2)c(F)cn2c(=O)c(C(=O)O)cc(C3CC3)c12	-	-	CCH442	MIC	>100 µg/mL
Cc1ccc2nc(N3CCOCC3)c(CC(C#N)c3nc4ccc(C)cc4[nH]3)cc2c1	-	broth dilution	MTCC 227	MIC	1000 µg/mL
Cc1c(N2CC3CCC(C)(N)C3C2)c(F)cn2c(=O)c(C(=O)O)cc(C3CC3)c12.Cl	-	-	CCH442	MIC	>100 µg/mL
CCCCCC(=O)O	-	-	-	MIC	>1000 µg/mL
CC(C)C(=O)OC1C(C)OC(=O)C(CCCCCCCNC(=O)c2ncccc2O)COC(=O)C1Cc1ccccc1	-	-	IFO1061	MIC	100 µg/mL
CCN[C@H]1CCN(c2c(F)cn3c(=O)c(C(=O)O)cc(C4CC4)c3c2C)C1	-	-	CCH442	MIC	0.02 µg/mL

For reference, 4 entries again:

SMILES | conditions | method | strain or isolate | measure | result
CCCCCCCCCC(=O)O | - | - | - | MIC | 290 µg/mL
CCCC[C@H]1C(=O)O[C@H](C)C(CCCCCCCCCCCNC(=O)c2cccc(NC=O)c2O)C(=O)O[C@@H](C)[C@@H]1OC(=O)CC(C)C | - | - | IFO1061 | MIC | 25 µg/mL
CCn1cc(C(=O)Nn2c(C)nc3ccc([N+](=O)[O-])cc3c2=O)c(=O)c2ccc(C)nc21 | - | - | - | MIC | <50 µg/mL
COc1cc2c(c3oc(=O)c4c(c13)CCC4=O)[C@H]1C[C@H](OC(C)=O)O[C@H]1O2 | - | agar | - | MIC | >100 µM